The values that follow come from publication PMC7049619 (Acta Pharmaceutica Sinica. B, 2019).

Usually CC50 stands for the concentration at which the toxic effect on the cells reaches its halfway point. A lower CC50 goes with greater toxicity to the cells.

The data set in a line: Cytotoxicity in C8166 cells by MTT method. To be noted: human, mean ± SD (n = 3), Table 1. In general terms: Tetrazolium dyes change colour on reduction, which living cells bring about.
As to `CCc1c(CC2CCCCC2)nc(SCc2cc(-c3ccccc3)[nH]n2)[nH]c1=O` [I-01, 6-(Cyclohexylmethyl)-5-ethyl-2-(((5-phenyl-1H-pyrazol-3-yl)methyl)thio)pyrimidin-4(3H)-one], the half-maximal cytotoxic concentration (CC50) at 3 days came out at 84.5 ± 0.91 µM. For the compound `CCc1c(CC2CCCCC2)nc(SCc2cc(-c3cccc(Br)c3)[nH]n2)[nH]c1=O` [I-03, 2-(((5-(3-Bromophenyl)-1H-pyrazol-3-yl)methyl)thio)-6-(cyclohexylmethyl)-5-ethyl-pyrimidin-4(3H)-one], the CC50 at 3 days was 76.3 ± 3.09 µM.

The compound `CCc1c(CC2CCCCC2)nc(SCc2cc(-c3cccc(Cl)c3)[nH]n2)[nH]c1=O` [I-04, 2-(((5-(3-Chlorophenyl)-1H-pyrazol-3-yl)methyl)thio)-6-(cyclohexylmethyl)-5-ethyl-pyrimidin-4(3H)-one] came in with a CC50 at 3 days of 80.99 ± 0.38 µM. On to `CCc1c(CC2CCCCC2)nc(SCc2cc(-c3cccc(F)c3)[nH]n2)[nH]c1=O` [I-05, 6-(Cyclohexylmethyl)-5-ethyl-2-(((5-(3-fluorophenyl)-1H-pyrazol-3-yl)methyl)thio)pyrimidin-4(3H)-one], for which the CC50 at 3 days stood at 72 ± 8.86 µM. Turning to `CCc1c(CC2CCCCC2)nc(SCc2cc(-c3cccc(C(F)(F)F)c3)[nH]n2)[nH]c1=O` [I-06, 6-(Cyclohexylmethyl)-5-ethyl-2-(((5-(3-(trifluoromethyl)phenyl)-1H-pyrazol-3-yl)methyl)thio)pyrimidin-4(3H)-one], the midpoint of cytotoxicity, the CC50 at 3 days, lay at 34.4 ± 3.5 µM. Compared with the last compound, the CC50 at 3 days is about 2.1-fold lower. `CCc1c(CC2CCCCC2)nc(SCc2cc(-c3ccc(Cl)cc3)[nH]n2)[nH]c1=O` [I-08, 2-(((5-(4-Chlorophenyl)-1H-pyrazol-3-yl)methyl)thio)-6-(cyclohexylmethyl)-5-ethyl-pyrimidin-4(3H)-one] came in with a CC50 at 3 days of 83.86 ± 0.45 µM. `CCc1c(CC2CCCCC2)nc(SCc2cc(-c3ccc(F)cc3)[nH]n2)[nH]c1=O` [I-09, 6-(Cyclohexylmethyl)-5-ethyl-2-(((5-(4-fluorophenyl)-1H-pyrazol-3-yl)methyl)thio)pyrimidin-4(3H)-one] yielded a CC50 at 3 days of 74.9 ± 4.82 µM. In turn, `CCc1c(CC2CCCCC2)nc(SCc2cc(-c3ccc(Cl)c(Cl)c3)[nH]n2)[nH]c1=O` [I-14, 6-(Cyclohexylmethyl)-2-(((5-(3,4-dichlorophenyl)-1H-pyrazol-3-yl)methyl)thio)-5-ethyl-pyrimidin-4(3H)-one] showed a CC50 at 3 days of 75.4 ± 8.48 µM. The result for `CCc1c(CC2CCCCC2)nc(SCc2cc(-c3ccc(F)c(F)c3)[nH]n2)[nH]c1=O` [I-15, 6-(Cyclohexylmethyl)-2-(((5-(3,4-difluorophenyl)-1H-pyrazol-3-yl)methyl)thio)-5-ethyl-pyrimidin-4(3H)-one] reads 86.4 ± 3.1 µM; that for `CCc1c(CC2CCCCC2)nc(SCc2cc(-c3ccc(C)cc3C)[nH]n2)[nH]c1=O` [I-16, 6-(Cyclohexylmethyl)-2-(((5-(2,4-dimethylphenyl)-1H-pyrazol-3-yl)methyl)thio)-5-ethyl-pyrimidin-4(3H)-one], 87.4 ± 1.87 µM. As to `CCc1c(CC2CCCCC2)nc(SCc2cc(-c3ccc(F)cc3F)[nH]n2)[nH]c1=O` [I-17, 6-(Cyclohexylmethyl)-2-(((5-(2,4-difluorophenyl)-1H-pyrazol-3-yl)methyl)thio)-5-ethyl-pyrimidin-4(3H)-one], the midpoint of cytotoxicity, the CC50 at 3 days, lay at 59.7 ± 8.78 µM. On to `CCc1c(CC2CCCCC2)nc(SCc2cc(-c3ccccn3)[nH]n2)[nH]c1=O` [I-18, 6-(Cyclohexylmethyl)-5-ethyl-2-(((5-(pyridin-2-yl)-1H-pyrazol-3-yl)methyl)thio)pyrimidin-4(3H)-one], for which it took 79.4 ± 5.18 µM to reach half-maximal cytotoxicity (CC50 at 3 days). This CC50 at 3 days and that of the compound before are within 1.5-fold of each other.

`CCc1c(CC2CCCCC2)nc(SCc2cc[nH]n2)[nH]c1=O` [I-19, 2-(((1H-Pyrazol-3-yl)methyl)thio)-6-(cyclohexyl-methyl)-5-ethylpyrimidin-4(3H)-one] had a CC50 at 3 days of 75 ± 6.88 µM. The compound `CCc1c(CC2CCCCC2)nc(SCc2cc(C)[nH]n2)[nH]c1=O` [I-20, 6-(Cyclohexylmethyl)-5-ethyl-2-(((5-methyl-1H-pyrazol-3-yl)methyl)thio)pyrimidin-4(3H)-one] gave a CC50 at 3 days of 45.2 ± 10.7 µM. For `CCc1c(CC2CCCCC2)nc(SCc2cc(C3CC3)[nH]n2)[nH]c1=O` [I-21, 6-(Cyclohexylmethyl)-2-(((5-cyclopropyl-1H-pyrazol-3-yl)methyl)thio)-5-ethyl-pyrimidin-4(3H)-one] the value was 47.2 ± 4.89 µM. For `CCc1c(CC2CCCCC2)nc(SCc2cc(C(C)(C)C)[nH]n2)[nH]c1=O` [I-22, 2-(((5-(tert-Butyl)-1H-pyrazol-3-yl)methyl)thio)-6-(cyclohexylmethyl)-5-ethyl-pyrimidin-4(3H)-one] the value was 67.9 ± 4.76 µM; for `CCc1c(CC2CCCCC2)nc(SCc2n[nH]c(-c3cccc(C)c3)c2Cl)[nH]c1=O` [I-24, 2-(((4-Chloro-5-(m-tolyl)-1H-pyrazol-3-yl)methyl)thio)-6-(cyclohexylmethyl)-5-ethyl-pyrimidin-4(3H)-one], 77.1 ± 13.6 µM. In turn, `CCc1c(CC2CCCCC2)nc(SCc2n[nH]c(-c3cccc(Br)c3)c2Cl)[nH]c1=O` [I-25, 2-(((5-(3-Bromophenyl)-4-chloro-1H-pyrazol-3-yl)methyl)thio)-6-(cyclohexylmethyl)-5-ethyl-pyrimidin-4(3H)-one] displayed a CC50 at 3 days of 58.1 ± 9.84 µM. `CCc1c(CC2CCCCC2)nc(SCc2n[nH]c(-c3cccc(Cl)c3)c2Cl)[nH]c1=O` [I-26, 2-(((4-Chloro-5-(3-chlorophenyl)-1H-pyrazol-3-yl)methyl)thio)-6-(cyclohexylmethyl)-5-ethyl-pyrimidin-4(3H)-one] came in with a CC50 at 3 days of 66.1 ± 31.4 µM.

`CCc1c(CC2CCCCC2)nc(SCc2n[nH]c(-c3cccc(C(F)(F)F)c3)c2Cl)[nH]c1=O` [I-28, 2-(((4-Chloro-5-(3-(trifluoromethyl)phenyl)-1H-pyrazol-3-yl)methyl)thio)-6-(cyclohexyl-methyl)-5-ethyl-pyrimidin-4(3H)-one] showed a CC50 at 3 days of 55.1 ± 3.82 µM. As for `CCc1c(CC2CCCCC2)nc(SCc2n[nH]c(-c3ccc(F)cc3)c2Cl)[nH]c1=O` [I-31, 2-(((4-Chloro-5-(4-fluorophenyl)-1H-pyrazol-3-yl)methyl)thio)-6-(cyclohexylmethyl)-5-ethyl-pyrimidin-4(3H)-one], the CC50 at 3 days is 64.9 ± 14.6 µM. In turn, `CCc1c(CC2CCCCC2)nc(SCc2n[nH]c(-c3ccc(F)c(F)c3)c2Cl)[nH]c1=O` [I-33, 2-(((4-Chloro-5-(3,4-difluorophenyl)-1H-pyrazol-3-yl)methyl)thio)-6-(cyclohexylmethyl)-5-ethyl-pyrimidin-4(3H)-one] gave a CC50 at 3 days of 115 ± 19.1 µM. In turn, `CCc1c(CC2CCCCC2)nc(SCc2n[nH]c(-c3ccc(OC)c(Cl)c3)c2Cl)[nH]c1=O` [I-34, 2-(((4-Chloro-5-(3-chloro-4-methoxyphenyl)-1H-pyrazol-3-yl)methyl)thio)-6-(cyclohexylmethyl)-5-ethyl-pyrimidin-4(3H)-one] showed a CC50 at 3 days of 49.8 ± 8.21 µM. Compared with the last compound, the CC50 at 3 days is about 2.3-fold lower. For `COc1ccc(-c2cc(CSc3nc(CC4CCCCC4)c(C)c(=O)[nH]3)n[nH]2)cc1` [I-36, 6-(Cyclohexylmethyl)-2-(((5-(4-methoxyphenyl)-1H-pyrazol-3-yl)methyl)thio)-5-methyl-pyrimidin-4(3H)-one] the value was 66.9 ± 0.86 µM.

On to `Cc1c(CC2CCCCC2)nc(SCc2cc(-c3ccc(F)cc3)[nH]n2)[nH]c1=O` [I-37, 6-(Cyclohexylmethyl)-2-(((5-(4-fluorophenyl)-1H-pyrazol-3-yl)methyl)thio)-5-methyl-pyrimidin-4(3H)-one], for which the CC50 at 3 days stood at 42.2 ± 1.75 µM. `COc1ccc(-c2cc(CSc3nc(CC4CCCCC4)cc(=O)[nH]3)n[nH]2)cc1` [I-39, 6-(Cyclohexylmethyl)-2-(((5-(4-methoxyphenyl)-1H-pyrazol-3-yl)methyl)thio)pyrimidin-4(3H)-one]: the midpoint of cytotoxicity, the CC50 at 3 days, lay at 56.1 ± 0.89 µM. `O=c1cc(CC2CCCCC2)nc(SCc2cc(-c3ccc(F)cc3)[nH]n2)[nH]1` [I-40, 6-(Cyclohexylmethyl)-2-(((5-(4-fluorophenyl)-1H-pyrazol-3-yl)methyl)thio)pyrimidin-4(3H)-one] gave a CC50 at 3 days of 61.6 ± 3.22 µM.
